A mixed list of measured activities; the numbers were collected in NIAID ChemDB.

All rows: growth or infection tests; species: HIV-1; read by: p24; endpoint: EC50

Rows are shuffled and stem from different studies. Blank or dashed fields: not listed here. ECn is the concentration giving n% inhibition of infection, replication or growth. a–b is a range or a potency band.

compound	changes	cells	strain or isolate	value
O=C(c1ccccc1)N(CCc1ccccc1)C[C@H](O)CN(CC1CCCC1)S(=O)(=O)CC1CCS(=O)(=O)CC1	-	CEM	IIIB	<1 µM
CCN1c2ncc(CCOc3ccc(-n4cc(C(=O)O)nn4)cc3C)cc2C(=O)N(C)c2cccnc21	RT-K103N Y181C	C8166	-	>0.05 µM
CC(C)CN(CC(O)CCN1CSC[C@@H]1C(=O)NC(C)(C)C)S(=O)(=O)c1ccccc1	-	CEM	IIIB	<1 µM
Clc1cc(CN2CCCNCCNCCCNCC2)cc(Cl)n1	-	MT-4	NL4-3 CXCL12-resistant X4	6.1 µM
CCN1c2ncc(CCOc3ccc(-n4ccnc4)cc3C)cc2C(=O)N(C)c2cccnc21	RT-K103N Y181C	C8166	-	<0.01 µM
Cc1ccc(C(=O)NC2(C(=O)N[C@@]34CC[C@]5(C)[C@H](CC[C@@H]6[C@@]7(C)CC[C@H](OC(=O)C8C[C@@H](C(=O)O)C8(C)C)C(C)(C)[C@@H]7CC[C@]65C)C3=C(C(C)C)C(=O)C4)CC2)cn1	V7A	MT-4	NL4-3	<0.01 µM
CCN1c2ncc(CCOc3ccc(-c4cc(C(=O)O)on4)cc3C)cc2C(=O)N(C)c2cccnc21	-	C8166	IIIB	>0.05 µM
CC(C)CN(CC(O)C(=O)N1CSC[C@H]1C(=O)NC(C)(C)C)S(=O)(=O)c1ccccc1	-	CEM	IIIB	<1 µM
O=C(O)c1cc(-n2cccc2)ccc1Cl	-	MT-2	RF X4 CLADE B	3.58 µM
CCN1c2ncc(CCOc3ccc(NC(=O)Nc4ccc(C(=O)O)cc4)cc3C)cc2C(=O)N(C)c2cccnc21	-	C8166	IIIB	0.01–0.05 µM
C/C=C/CSc1cc(NC(=S)c2ccsc2C)ccc1Cl	RT-L100I	CEM + CEM-SS	NL4-3	2.2 µM
Cc1nc(C)c(C(=O)NC(C)(C)C(=O)N[C@@]23CC[C@]4(C)[C@H](CC[C@@H]5[C@@]6(C)CC[C@H](OC(=O)C7C[C@@H](C(=O)O)C7(C)C)C(C)(C)[C@@H]6CC[C@]54C)C2=C(C(C)C)C(=O)C3)s1	-	MT-4	NL4-3	<0.005 µM
Nc1cccc(S(=O)(=O)N(CC2CCCC2)C[C@@H](O)CN(CCc2ccccc2)C(=O)O[C@H]2CCOC2)c1	-	CEM	IIIB	<0.1 µM
CC(C)C1=C2[C@H]3CC[C@@H]4[C@@]5(C)CC[C@H](OC(=O)C6C[C@@H](C(=O)O)C6(C)C)C(C)(C)[C@@H]5CC[C@@]4(C)[C@]3(C)CC[C@@]2(NC(=O)C2(NC(=O)c3ccc(Cl)cc3)CCC2)CC1=O	-	MT-4	NL4-3	0.00501–0.01 µM
CCN1c2ncc(CCOc3ccc(-c4ccc(Cl)c(C(=O)O)c4)cc3C)cc2C(=O)N(C)c2cccnc21	RT-K103N Y181C	C8166	-	0.01–0.05 µM
CC(C)[C@H](NC(=O)OCc1ccccn1)C(=O)N[C@@H](Cc1ccccc1)[C@@H](O)C[C@H](Cc1ccccc1)NC(=O)OCc1cccnc1	PR-M46I	MT-4	NL4-3	<0.8 µM
C=CCOC(=O)N(CCc1ccccc1)C[C@H](O)CN(CC1CCCC1)S(=O)(=O)c1ccc(OC)cc1	-	CEM	IIIB	<0.1 µM
CC(C)C1=C2[C@H]3CC[C@@H]4[C@@]5(C)CC[C@H](OC(=O)C6C[C@@H](C(=O)O)C6(C)C)C(C)(C)[C@@H]5CC[C@@]4(C)[C@]3(C)CC[C@@]2(NC(=O)C(C)(C)NS(=O)(=O)c2ccc(Cl)cc2)CC1=O	V7A	MT-4	NL4-3	>0.05 µM
CCN1c2ncc(CCOc3ccc(-c4ccccc4)cc3)cc2C(=O)N(C)c2cccnc21	RT-K103N Y181C	C8166	-	>0.05 µM
COc1ccc(S(=O)(=O)N(CC(C)C)C[C@@H](O)CCN(CC2CCCC2)S(=O)(=O)c2cccnc2)cc1	-	CEM	IIIB	<1 µM

2 of the rows above, restated:

compound | changes | cells | strain or isolate | value
O=C(O)c1cc(-n2cccc2)ccc1Cl | - | MT-2 | RF X4 CLADE B | 3.58 µM
C=CCOC(=O)N(CCc1ccccc1)C[C@H](O)CN(CC1CCCC1)S(=O)(=O)c1ccc(OC)cc1 | - | CEM | IIIB | <0.1 µM